Human monoclonal antibodies against the spike receptor-binding domain (heavy:light variable regions). IC50 against pseudoviruses bearing the spike of naturally observed variants; lower = stronger; >10 µg/ml means not reached at the top dose. No active / inactive call. The stated detection limit is 0.0005 µg/ml; values near or below 0.001 µg/ml lie at the floor of the assay. Where only a bound is given, the exact number is not on record here.

Common to all, as to experiment: pseudovirus neutralization IC50; higher = weaker neutralization
Assay [1] deals with SARS-CoV-2 Omicron BA.1 spike pseudovirus. On the procedure:
(§1)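 Single-round VSV luciferase pseudovirus mixed with antibody dilutions for 1 h and put on Huh-7 cells for about a day; IC50 from the dose curve.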

The target in assay [2] is SARS-CoV-2 Omicron BA.2 spike pseudovirus. How it is done: as §1
In assay [3] the target is SARS-CoV-2 Omicron BA.2.75 spike pseudovirus. On the procedure: as §1
The target in assay [4] is SARS-CoV-2 Omicron BA.5 spike pseudovirus. On the procedure:
as §1

In assay [5] the target is SARS-CoV-2 Omicron BQ.1.1 spike pseudovirus. On the procedure: as §1
The target of assay [6] is SARS-CoV-2 Omicron XBB spike pseudovirus. On the procedure:
as §1

The target of assay [7] is SARS-CoV-2 early D614G spike pseudovirus. On the procedure: as §1

B1: BD57-097 (protein)
chain 1: EVQLVESGGGLVQPGGSLRLSCAASGFTFSSFDMHWVRQPTGKGLEWVSVIGTAGDTYYPDSVKGRFTISRENAKNSLYLQINSLRAGDTAVYYCARANYFGSSGYGNYYYGLDVWGQGTTVTVSS
chain 2: EIVMTQSPATLSVAPGERATLSCRASESVRSNLAWYQQKPGQGPRLLIYGASTRATGIPARFSGSGSGTEFTLTISSLQSEDFAVYYCQQYNIWPPLTFGGGTKVEIK
Consider B1, for which the “pseudovirus neutralization IC50” value is 6.56 µg/mL in assay [1]; 7.6 µg/mL in assay [2]; 4.5 µg/mL in assay [3]; 6.87 µg/mL in assay [4]; 7.21 µg/mL in assay [5]; more than 10 µg/mL in assay [6]. Also, the “pseudovirus neutralization IC50” value in assay [7] stood at 3.63 µg/mL.

B2: BD57-072 (protein)
chain 1: EVQLVESGGGLVQPGRSLRLSCAASGFTFEDYAMHWVRQAPGKGLEWVSVISWNSGGIAYADSVKGRFTISRDNAKNSLYLQMNSLRPEDTALYYCAKGWFGEWLGGIDPWGQGTLVTVSS
chain 2: QSVLTQPPSVSGAPGQRVTISCTGSSSNIGAGFDVYWYQQLPGTAPKLLIYGNSNRPSGVPDRFSGSKSGTSASLAITGLQVEDEAYYYCQSYDISLSGSGVFGGGTKLTVL
On to B2, for which the “pseudovirus neutralization IC50” value in assay [1], in assay [2], in assay [3], in assay [4], in assay [5] and in assay [6] was more than 10 µg/mL throughout. Moreover, the “pseudovirus neutralization IC50” value in assay [7] stood at 2.51 µg/mL.

B3: BD57-090 (protein)
chain 1: EVQLVESGGGLVQPGGSLRLSCAASGFSLSDYDMHWVRQAAGKGLEWVSAIGTAGDTYYPGSVKGRFTISRENAKNSMYLQMNSLRAGDTAVYYCVRDTGMTSVTTEGIKNYWYFDFWGRGTLVTVSS
chain 2: DIQVTQSPSSLSASVGDRVTITCRASQSISSYLNWYQQKSGKAPKLLIYAASHLQSGVPSRFSGSGSGTDFTLTISSLQPEDFATYYCQQSYSSPPFTFGPGTKVDIK
For the molecule B3, the “pseudovirus neutralization IC50” value in assay [1], in assay [2], in assay [3], in assay [4], in assay [5] and in assay [6] was more than 10 µg/mL in each case. In assay [7], the “pseudovirus neutralization IC50” value was more than 10 µg/mL.

B4: CM32 (protein)
chain 1: QVQLVQSGPEVKKPGASVKVSCQTSGYSFSDHYLHWVRQTPGQGFEWMGWIKPKSGATNSADNFQDRVTMTADASVNTAYMELSSLRPDDTAVYYCARGHRIPSAISDKYDFWGQGTLVTVSS
chain 2: QSVLTQPASVSASPGQSITISCTGTSSDVGGYDYVSWYQHHPDNAPKLLIFEVSNRPSGVSNRFSGSKSGNAASLTISGLLAEDEADYFCTSYSSGRTPYVFGTGTKVTVL
Take B4: the “pseudovirus neutralization IC50” value in assay [1], in assay [2], in assay [3], in assay [4], in assay [5] and in assay [6] was more than 10 µg/mL each time. Moreover, in assay [7], the “pseudovirus neutralization IC50” value was determined as 0.039 µg/mL.

B5: BD57-079 (protein)
chain 1: QMQLVQSGPEVKKPGTSVKVSCKASGFTFTTSAVQWVRQARGQRLEWIGWIAVGSGDTNYAQSFQERVTLSRDESTSTAYMELSSLRSEDTAVYYCAAPYCTGGACNDGFDIWGQGTMVTVSS
chain 2: EIVLTQSPGTLSLSPGERATLSCRASQSVTSSYLAWYQQKPGQAPRVLIYAASSRATGIPDRFSGSGSGTEFTLTISRLEPEDFAVYHCQQYGRSPWTFGQGTKVEIK
Regarding B5, the “pseudovirus neutralization IC50” value in assay [1] stood at 0.001 µg/mL; in assay [2] it was 0.000279 µg/mL; in assay [3], 0.000817 µg/mL; in assay [4] it was 0.194 µg/mL; in assay [5], 0.881 µg/mL; in assay [6], 2.58 µg/mL. For the same molecule, the “pseudovirus neutralization IC50” value in assay [7] amounted to 0.00459 µg/mL.

B6: BD57-096 (protein)
chain 1: QVQLVQSGAEVKKPGSSVKVSCKASGGTFSSYTVSWVRQAPGQGLHWMGRIIPILGVADYAQKFQDRVTITADKSTGTAYMELSSLRSDDTAVYYCAREVGYSSSGSNWYFDLWGRGTLVTVSS
chain 2: QSVLTQPPSVSGTPGQRVTISCTGSSSNIGAGYDVHWYQQVPGTAPKLLISVNNNRPSGVPDRFSGSKSGTSASLAITGLQAEDEADYYCQSYDSDLSGSLFGGGTKLTVL
Regarding B6, the “pseudovirus neutralization IC50” value in assay [1] is 0.271 µg/mL; in assay [2], 0.275 µg/mL; in assay [3], 0.204 µg/mL; in assay [4], 0.255 µg/mL; in assay [5], 0.872 µg/mL; in assay [6], 0.803 µg/mL. Besides, the “pseudovirus neutralization IC50” value in assay [7] was found to be 0.0605 µg/mL.

The values above are taken from the supplement of paper PMC9931576.
